Source: ChEMBL document CHEMBL3988442, “University of Dundee, Small-Polar-MMV Screening Library” (2021).

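Phenotypic screen: M. tuberculosis growth, glucose 7H9 medium, 3 days; the read-out is not stated. Compounds at 500 µM. Higher reads as more growth inhibition (inferred: compounds with an IC50 in retests scored well above the rest). Size under these conditions: about 18,000 compounds, about 1,400 of them at 50% or above in at least one test.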

Results are given as percent effect.
The controls that fix the scale are not given in the record; negative values are as filed.
The entries come from a sample that favours strong results.

structure,effect
CN1CCCCCC1C(=O)NCCc1ccncc1 (stereo not given),7.898%
Cc1nnsc1CN(C)C(=O)c1cccc2c1OCC2,29.06%
CCN1CCCC1CNS(=O)(=O)c1cn(C(C)C)cn1 (stereo not given),6.725%
CCn1ccnc1C1CCN(C(=O)CNC)CC1,-7.125%
O=C(Cc1ccc(Cl)cc1Br)NC(CO)CO,20.11%
CC(C(=O)NCc1ccnc(N(C)C)c1)S(C)(=O)=O (stereo not given),16.2%
CNCC(=O)Nc1ccccc1OC,2.816%
CSC(C)(C)CNC(=O)Nc1cc(C)on1,42.74%
CNC(=O)c1ccc(CN)o1,8.178%
NCCc1cc(O)cc(O)c1,13.67%
CN(C)S(=O)(=O)NCC(O)c1cccc(C(F)(F)F)c1 (stereo not given),27.02%
COc1cccc([C@H]2C[C@H](N)C2)c1,49.49%
CCn1ccc(C(=O)NC(C)c2ccccc2)n1 (stereo not given),76.34%
O=C(CCCN1CCCCC1)NCCc1cnccn1,4.841%
CC(N)CC(=O)Nc1cccc(N2CCCC2)c1 (stereo not given),44.86%
CCC(=O)Nc1nc2c(s1)COCC2,10.53%
CN(C(=O)Cn1cc(Br)cn1)C1(C#N)CCCCC1,-2.881%
CCN1CCC(CC(=O)N(C)Cc2noc(C)n2)CC1,-10.81%
C[C@H](N)C(=O)NCCO,7.865%
CCSCCNC(=O)c1cc(CC)[nH]c(=O)c1,-4.296%
COCc1noc(CCNC(=O)[C@H]2CCC[C@H](O)C2)n1,-1.582%
CC(=O)NCCCNCc1cccc(C#N)c1,53.94%
COc1cc(CNC(=O)CSc2nccn2C)ccn1,29.06%
Cc1cc(C(=O)NCCc2ccccc2F)[nH]n1,48.85%
CCOC(=O)C(C)(O)c1ccc(F)c(F)c1 (stereo not given),4.179%
C[C@@H](N)c1ccc(F)cn1,12.73%
COc1cccc(C(C)O)c1 (stereo not given),3.015%
Cc1[nH]c2ccc(C(N)=O)cc2c1C,77.24%
COCCCNC(=O)C1=Cc2ccccc2OC1,71.42%
CC1=CCN(Cc2ccc(N(C)C)nc2)CC1,-66.43%
CN(C(=O)CSc1cnn[nH]1)c1ccccc1,26.51%
CC(c1ccccn1)N(C)C(=O)c1cscn1 (stereo not given),-12.83%
Nc1nnc(SCCN2CCCCC2)[nH]1,8.215%
O=C(CCc1ccccc1)NCC1(O)CCOC1 (stereo not given),-7.221%
CN(Cc1ccc(N)nc1)c1ccc(C#N)cn1,51.84%
CN(C(=O)NC1CCCCC1)C1CC[S+]([O-])CC1 (stereo not given),5.09%
CC(C)c1ccc(CNCCNCCO)cc1,44.33%
O=C(Nc1ccc(F)cc1Cl)N[C@@H]1CNCC[C@H]1O,3.715%
CSCC(N)c1ccccc1 (stereo not given),36.41%
Cc1nnc(CN2C[C@H](C3CC3)[C@@H](N)C2)s1,7.436%
COc1cc(-c2nc(CN)no2)cc(OC)c1OC,19.29%
CC(C)NS(=O)(=O)c1cc(CN)ccc1F,61.3%
O=C(CCc1ccc(F)cc1)NCC1CCNC1 (stereo not given),-3.876%
Cc1cc(NC(=O)Cn2ccc(=O)n(C)c2=O)no1,-5.023%
O=c1oc(-c2ccccc2)nn1CN1CCCCC1,1.446%
CC(C)(C)OCC(O)CN1CCCCC1 (stereo not given),0.5848%
O=C1CCC(C(=O)Nc2ccc(F)c(Br)c2)N1 (stereo not given),48.1%
NCC(O)c1ccc(Cl)s1 (stereo not given),64.65%
CC(C)N(CCS(=O)(=O)c1ccccc1)CC(N)=O,52.09%
Nc1nnc(SCc2cn3ccccc3n2)[nH]1,-1.096%
CCN1C(=O)Cc2cc(C(=O)NC(C)(C)C)ccc21,-0.8082%
Cc1cc(C)nc(CN(C)CCC(=O)NC(C)C)c1,6.934%
O=C(Nc1cccs1)NC1(CCO)CCC1,-3.304%
CNC(=O)CCNC(=O)NCCc1ccccc1,9.706%
Nc1ccn(CCCN2CCCC2)n1,-0.8123%
COCCc1noc(C2CCN(CC(N)=O)CC2)n1,-5.264%
CC(N)c1noc(-c2ccccc2)n1 (stereo not given),37.6%
COc1cccc(CN(C)C(=O)c2cc[nH]n2)n1,21.29%
Cc1onc(N)c1S(=O)(=O)NCc1ccccn1,4.206%
CN(C)S(=O)(=O)CCCN1C[C@H](C2CC2)[C@@H](N)C1,11.07%
CS(=O)(=O)c1cccc(OCCN2CCCSCC2)c1,26.65%
Cc1ccc(C(=O)N2CCOCC2)cc1-n1cccc1,19.31%
O=C(Cc1ccccc1Cl)NC1CCCNC1 (stereo not given),13.69%
CC(C)(C#N)C(=O)Nc1nc2ccccc2[nH]1,-1.166%
Cc1ccc2[nH]c(CN)nc2c1C,65.31%
CNc1nnc(SCC(=O)N2CCCCCC2)s1,31.41%
CCn1c(SCC(N)=O)nnc1-c1cc(Br)cs1,86.47%
CN(C)C(CNC(=O)CN1CCCC1=O)c1cccs1 (stereo not given),37.23%
Cc1c(Br)cnc(N)c1N,-29.97%
CCn1ccc(C(=O)NCc2ccco2)n1,48.51%
C[C@@H](O)CNC(=O)NCCCc1nc2c(s1)CCCC2,36.92%
NC1CCC(OCC(=O)Nc2nccs2)CC1 (stereo not given),-6.532%
O=C(Cc1ccsc1)N1CCC(c2cc[nH]n2)CC1,20.4%
O=C1CN(C(=O)c2ccccn2)c2ccncc2N1,4.821%
Cc1ncsc1C(=O)Nc1cc(Br)c(=O)n(C)c1,-2.982%
O=C(NC1CC1)c1cccc2cn[nH]c12,18.39%
Cc1ccc(C2CN(CCOC(=O)N(C)C)CCO2)o1 (stereo not given),0.6513%
O=C(NCCOCc1ccc(Cl)cc1)C1CNCCO1 (stereo not given),29.88%
NC(=O)CC1COCCN1 (stereo not given),-5.035%
OCC(O)CSCc1ncc(-c2cccc(Cl)c2)o1 (stereo not given),60.88%
Cc1cc(OC(F)F)c(C2NC(=O)CN2C)cc1C (stereo not given),62.92%
COc1ccc(NC(=O)N2CCOCC2C)cc1 (stereo not given),18.32%
Cc1ccc(CNC(=O)C2CCCN(C(N)=O)C2)s1 (stereo not given),45.88%
CN(C)C(=O)c1cc2ccccc2cc1O,25.99%
CCCn1ccnc1CNC(=O)[C@H]1CCC[C@@H](O)C1,-15.11%
c1cnn(CCNCCn2cccn2)c1,-0.6894%
NCC1CCN(C2CCCC2)C1 (stereo not given),-4.579%
COCCC1(CO)CCCN(C(=O)c2ccncc2)C1 (stereo not given),2.215%
NCc1ccc(N2CC=CC2)cc1,38.25%
C(Cc1noc(C2CNC2)n1)OCC1CC1,104.1%
COc1ccc2c(c1)CN(C(=O)c1ccccn1)CC2,22.96%
CC(C)CCOCC(=O)NC1CCc2nccn2C1 (stereo not given),-2.2%
CC(O)C(=O)N1C[C@H]2CN(C(=O)OC(C)(C)C)C[C@H]2C1 (stereo not given in full),18.31%
COc1ccc(CCC(=O)NC2CCN(C)CC2)cc1,-0.212%

Some entries from above, unchanged:

- CC(c1ccccn1)N(C)C(=O)c1cscn1 (stereo not given) | -12.83%
- Nc1nnc(SCc2cn3ccccc3n2)[nH]1 | -1.096%
- CCn1c(SCC(N)=O)nnc1-c1cc(Br)cs1 | 86.47%
- CC(C(=O)NCc1ccnc(N(C)C)c1)S(C)(=O)=O (stereo not given) | 16.2%
- Cc1c(Br)cnc(N)c1N | -29.97%
- O=C(CCc1ccc(F)cc1)NCC1CCNC1 (stereo not given) | -3.876%
- C[C@@H](N)c1ccc(F)cn1 | 12.73%